# PubChem BioAssay AID1259414 – Drosophila RNAi Screening Center – 2018
# Screen: 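Host factors increasing or decreasing Wolbachia levels in cultured fly cells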 (primary screen)
# Cell system: Drosophila JW18 cells infected with Wolbachia
# Knock-down reagent: long dsRNA against Drosophila genes, 0.25 µg dsRNA per well of a 384-well plate
# Timing: 5 days
# Challenge: cells persistently infected with Wolbachia before knock-down; no added drug
# Detection: 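Imaged fluorescence in situ signal for Wolbachia 23S rRNA per DAPI-counted host cell, given as a robust z-score within each plate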
# Scale: Wolbachia per cell robust z: higher = more Wolbachia per host cell than the plate typical
# Rule for the call: 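Active if absolute robust z reaches 1.5 in two or more of three replicates, leaving out multi- or no-target dsRNAs, genes unexpressed in JW18 and A1 wells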
# The deposit covers about 24,000 reagents; shown is a random part of those with a known target gene and a result. Of all reagents, about 1,210 (5%) got an active call. 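Inactive calls also include excluded dsRNAs with several or no targets, genes unexpressed in JW18, and well A1, regardless of score.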 A number with no mark means an inactive call. Names joined by + are all predicted targets of the reagent.
gene,dsRNA,"Wolbachia per cell robust z, rep 1","Wolbachia per cell robust z, rep 2","Wolbachia per cell robust z, rep 3"
Patj (GeneID 44100),DRSC08712,-0.0193,0.166,0.699
Patj (GeneID 44100),DRSC28714,0.807,0.503,1.22
CG32333 (GeneID 38142),DRSC08627,1.07,0.95,0.183
CG32333 (GeneID 38142),DRSC08629,1.06,1.66,1.2
Ac76E (GeneID 40180),DRSC09642,-0.786,-0.663,-0.516
Ac76E (GeneID 40180),DRSC09662,-1.87,0.704,0.798
cnir (GeneID 33520),DRSC00499,-1.57,-1.19,-0.111
cnir (GeneID 33520),DRSC26787,0.753,1.06,1.36
RNaseX25 (GeneID 38885),DRSC11259,-1.56 (active),-5.83,-1.49
RNaseX25 (GeneID 38885),DRSC29835,-2.94 (active),-4.86,-10.2
Eig71Ei (GeneID 39710),DRSC11156,-5.85,1.13,-1.43
Eig71Ei (GeneID 39710),DRSC29123,0.682,-0.236,-1.64
ACXD (GeneID 38284),DRSC07843,0.924,0.818,0.243
ACXD (GeneID 38284),DRSC23762,-0.381,-0.626,-8.32
Vm26Ac (GeneID 33828),DRSC02329,-3.07,0.705,-5.7
Vm26Ac (GeneID 33828),DRSC26887,1.05,-0.223,0.387
CG10077 (GeneID 38756),DRSC09691,0.405,-1.62,0.618
CG10077 (GeneID 38756),DRSC24756,-1,-0.0583,-0.1
SLIRP1 + anox,DRSC20542,1.94,0.173,1.35
Adgf-B (GeneID 39975),DRSC10568,-2.8,-0.137,-4.04
Adgf-B (GeneID 39975),DRSC24118,1.77,1.55,0.604
KFase (GeneID 33907),DRSC03258,-0.5,0.6,-1.89
KFase (GeneID 33907),DRSC30035,-1.41,0.261,-0.307
RecQ4 (GeneID 53438),DRSC11265,-0.116,-1.13,-0.965
RecQ4 (GeneID 53438),DRSC27616,0.829,1.47,0.911

An excerpt from above, showing only “Wolbachia per cell robust z, rep 1”.
Eig71Ei (GeneID 39710) [DRSC11156]: -5.85
Eig71Ei (GeneID 39710) [DRSC29123]: 0.682

The listing continues:
gene,dsRNA,"Wolbachia per cell robust z, rep 1","Wolbachia per cell robust z, rep 2","Wolbachia per cell robust z, rep 3"
CysRS (GeneID 36784),DRSC05948,0.552,0.442,-0.451
CysRS (GeneID 36784),DRSC26620,0.88,0.683,0.906
Proc-R (GeneID 31408),DRSC18410,1.4,0.649,0.556
Pstk + Tim9b,DRSC28671,-4.46,-11.5,-1.56
CG12857 (GeneID 36642),DRSC06197,0.589,0.228,0.339
a (GeneID 43852),DRSC04668,0.291,1.13,-2.27
a (GeneID 43852),DRSC27708,-0.204,1.5,1.1
EMC1 (GeneID 40933),DRSC15455,0.15,-0.0864,-1.24
CG9519 (GeneID 32415),DRSC20195,-0.75,0.79,-1.09
CG9519 (GeneID 32415),DRSC28137,0.0725,0.334,-2.6
CG7271 (GeneID 40021),DRSC22561,0.766,0.0924,0.326
CG14207 (GeneID 32955),DRSC19562,-0.437,0.051,-0.818
CG14207 (GeneID 32955),DRSC19563,-1.04,0.231,0.74
Prm (GeneID 39002),DRSC08941,0.305,1.12,0.488
Prm (GeneID 39002),DRSC08942,0.533,0.318,1.26
Prm (GeneID 39002),DRSC11255,0.556,0.0976,0.319
Prm (GeneID 39002),DRSC26929,0.556,-0.859,-1.26
Mmp2 (GeneID 35997),DRSC06698,-0.267 (active),-3.38,-2.04
Mmp2 (GeneID 35997),DRSC22024,-0.157,0.89,1.08
Mmp2 (GeneID 35997),DRSC25458,0.833,0.141,-1.9
CG9109 (GeneID 33844),DRSC03139,-0.822,-9.88,-0.689
CG9109 (GeneID 33844),DRSC26398,1.95,-0.361,-1.07
